Pooled drug test results. Numbers come from NIAID ChemDB, via PubChem.

Common to all: whole-cell or culture tests; organism: Mycobacterium tuberculosis

Blank or dashed fields: not listed here.

SMILES	tested at	mutations	method	cell line	endpoint	strain	value
CCN1C(=O)Cc2cc(C(=O)CN3CCN(c4ccccn4)CC3)ccc21	-	-	visual reading / absorbance	-	MIC	H37Rv	1.56 µg/mL
CCN1C(=O)[C@@H]2[C@H](C1=O)[C@@H](C(=O)c1ccc(C)cc1)N1c3ccc4cccnc4c3C=C[C@H]21	-	-	reporter gene / fluorescence	-	EC90	H37Rv	>100 µM
CCn1c2ccc(N(C)C)cc2c2cc(N(C)C)ccc21	12.5 µg/mL	-	BACTEC	-	inhibition	H37Rv	34%
CC1COc2c(N3CCN(C)CC3)c(F)cc3c(=O)c(C(=O)O)cn1c23	-	-	-	-	MIC90	25 strains	0.78 µg/mL
Cn1c(NNc2nc(NCc3ccccc3)nc(NCc3ccccc3)n2)nc(-c2ccc(Cl)cc2)c(C#N)c1=O	-	-	-	-	EC50	H37Rv	<12.5 µg/mL
CCN1C(=O)C(C)c2cc(C(=O)CN3CCN(c4noc5c(Cl)cccc45)CC3)ccc21	-	-	visual reading / absorbance	-	MIC	H37Rv	3.12 µg/mL
COc1ccc(C2OC(c3ccncc3)=NN2C)cc1OC	-	-	-	-	MIC	16PI	>20 µg/mL
c1cc2c(s1)CCOC21CCN(Cc2ccc3c(c2)OCCO3)CC1	-	MmpL3: Ile292Ser	fluorescence	-	fold resistance	H37Rv	≥33.3
O=C1Cc2cc(C(=O)CN3CCN(c4noc5cc(Cl)ccc45)CC3)ccc2N1	-	-	visual reading / absorbance	-	MIC	H37Rv	>50 µg/mL
COC(=O)c1c(C(=O)OC)c2cc(C(=O)OC(C)C)ccn2c1C(=O)c1ccc(Br)cc1	-	-	resazurin	-	MIC	H37Rv	1 µg/mL
S=C(Nc1ccccc1)Nc1ccc(-c2nnc(NC3CCCCC3)s2)cc1	6.25 µg/mL	-	BACTEC	-	inhibition	H37Rv	67%
COc1ccc(C(=O)[C@@H]2C[C@H](C#N)[C@@H]3C=Cc4c(ccc5cccnc45)N23)cc1	-	-	reporter gene / fluorescence	-	MIC	H37Rv	>200 µM
CCNc1nc(NCC)nc(NNc2nc(-c3ccccc3)c(C#N)c(=O)n2C)n1	12.5 µg/mL	-	-	-	inhibition	H37Rv	46%
O=C1Cc2cc(C(=O)CN3CCN(c4noc5cccc(Cl)c45)CC3)ccc2N1	-	-	visual reading / absorbance	-	MIC	H37Rv	25 µg/mL
CCCCCCCCc1ccc(Oc2ccccc2)c(O)c1	-	-	-	-	MIC99	W210	2.6 µg/mL
Cc1ccc(N=C=S)cc1Cl	-	-	BACTEC	-	MIC bound	H37Rv	>12.5 µg/mL
NNC(=O)c1ccncc1	-	-	-	-	MIC99	HN335	0.03 µg/mL
Cc1cnc(/C=N/NC(N)=S)cn1	12.5 µg/mL	-	BACTEC	-	inhibition	H37Rv	92%
O=C1Cc2cc(C(=O)CN3CCN(c4ccccn4)CC3)ccc2N1	-	-	visual reading / absorbance	-	MIC	H37Rv	25 µg/mL
Cc1nc(N)sc1C(=O)C=Cc1ccc2c(c1)OCO2	6.25 µg/mL	-	resazurin	-	inhibition	H37Rv	11%
COc1ccc(CN=C2NC(=O)/C(=C/c3ccccc3Cl)N2)cc1	-	-	-	-	MIC	H37Rv	>6.25 µg/mL
CO[C@@H]1C/C=C\C=C\C[C@H](C)[C@@H](O)C[C@@H](O)[C@H](C)[C@H](O)CC(=O)O[C@H]([C@H](C)[C@H](O)/C=C(\C)CC/C=C/C=C/CC(O)CC(C)CCC(=O)O)C[C@H](O)CCC1	-	inhA mutant isoniazid resistant	resazurin / absorbance	-	MIC	HUG.MB.6726	0.4 µg/mL
COc1ccccc1OC(=O)c1ccc(N)cc1O	-	-	-	-	MIC	H37Rv	0.0075 µg/mL
COC1C(O)=C2C(=O)OC(C)(O)/C=C/C=C/C=C/C=C\C(c3ccccc3)NC(=O)/C=C/C=C/C=C/C=C/C2(C)C1O	-	-	BACTEC	-	MIC bound	H37Rv	≤12.5 µg/mL
Nc1ccc(C(=O)Oc2ccccc2)c(O)c1	-	-	-	-	MIC	H37Rv (p-aminosalicylate-resistant)	75 µg/mL
O=C1NC(=NCc2ccccc2)N/C1=C\c1ccccc1Cl	12.5 µg/mL	-	-	-	inhibition	H37Rv	20%
Cc1c2oc3c(C)ccc(C(=O)NCCC(C)C)c3nc-2c(C(=O)NCCC(C)C)c(N)c1=O	12.5 µg/mL	-	BACTEC	-	inhibition	H37Rv	-19%
Cc1c(N2CCC(O)(c3ccc(Cl)cc3)CC2)c([N+](=O)[O-])cc2c(=O)c(C(=O)O)cn(-c3ccc(F)cc3F)c12	-	-	-	-	MIC	H37Rv	>21.93 µM
Cc1c(N=Cc2ccccc2)c(=O)n(-c2ccccc2)n1C	-	-	BACTEC	-	MIC	H37Rv	≥12.8 µg/mL
CO/N=C1\CN(c2nc3c(cc2F)c(=O)c(C(=O)O)cn3C2CC2)CC1CN	-	-	-	-	MIC50	37 strains (drug-resistant)	>4 µg/mL
O=C1NC(Nc2cccc(Cl)c2)=N/C1=C\c1ccccc1Cl	12.5 µg/mL	-	-	-	inhibition	H37Rv	91%
Cn1c(NNc2nc(Nc3cccc([N+](=O)[O-])c3)nc(Nc3cccc([N+](=O)[O-])c3)n2)nc(-c2ccccc2)c(C#N)c1=O	-	-	-	-	MIC	H37Rv	>12.5 µg/mL
CC1(C)SCCCCCCCSC(C)(C)SCCCCCCCS1	-	-	BACTEC	-	MIC bound	H37Rv	>12.5 µg/mL
CCNc1nnc(-c2ccc(N=N/C(C(C)=O)=C(/C)O)cc2)s1	6.25 µg/mL	-	BACTEC	-	inhibition	H37Rv	39%
O=c1cc(-c2ccccc2)nc(-n2[nH]c3c(c2=O)CCCC3)[nH]1	-	-	resazurin	-	MIC bound	H37Rv	<6.25 µg/mL
COc1ccc(C2OC(c3ccncc3)=NN2C)c(OC)c1	-	-	-	-	MIC	16PI	>20 µg/mL
Cn1c(NNc2nc(Nc3ccc(Cl)cc3Cl)nc(Nc3ccc(Cl)cc3Cl)n2)nc(-c2ccc(Cl)cc2)c(C#N)c1=O	-	-	-	-	MIC	H37Rv	>12.5 µg/mL
CCOC(=O)c1cc(C(=O)c2ccc(Br)cc2)n2c1ccc1c3ncccc3ccc12	-	-	reporter gene / fluorescence	-	EC90	H37Rv	>100 µM
CO[C@H]1/C=C/O[C@@]2(C)Oc3c(C)c(O)c4c(O)c(c5c(c4c3C2=O)NC2(CCN(CC(C)C)CC2)N=5)=NC(=O)/C(C)=C\C=C\[C@H](C)[C@H](O)[C@@H](C)[C@@H](O)[C@@H](C)[C@H](OC(C)=O)[C@@H]1C	-	-	-	-	MIC	Strain 2 (INH-resistant)	0.006 µg/mL
CN1N=C(c2ccncc2)OC1c1ccccc1	-	-	-	-	MIC	16PI	>20 µg/mL
Cc1cccc(C(N)=Nc2nc(-c3ccccn3)cc3ccccc23)c1	-	-	-	-	MIC	J-3113	1 µg/mL
Cc1c(N2CCSCC2)c([N+](=O)[O-])cc2c(=O)c(C(=O)O)cn(C3CC3)c12	-	-	-	-	MIC	H37Rv	2 µM
Cc1cc(COC(=O)c2ccc(N)cc2O)ccc1C(C)C	-	-	-	-	MIC	H37Rv (streptomycin-resistant)	0.025 µg/mL
Cc1cc2c(cc1C)[n+](=O)c(C(=O)/C=C/c1ccccc1[N+](=O)[O-])c(C)n2[O-]	6.25 µg/mL	-	resazurin	-	inhibition	H37Rv	10%
CCCCCCCCN1C(=O)CS(=O)(=O)C12CCCCC2	-	-	resazurin	-	EC50	H37Ra	<25 µg/mL
CN1N=C(c2ccncc2)OC1c1ccc(Cl)c(Cl)c1	-	-	-	-	MIC	6 PI	>20 µg/mL
CCCCCCCCCCCCN1C(=O)C(C)SC12CCCCC2	25 µg/mL	-	resazurin	-	inhibition	H37Ra	2%
CN(C)c1ccc(N=Nc2ccc3c(c2)C(=O)c2ccccc2C3=O)cc1	6.25 µg/mL	-	resazurin	-	inhibition	H37Rv	0%
COC(=O)c1c(C(=O)OC)c2ccc3c4ncccc4ccc3n2c1C(=O)c1ccc(Br)cc1	-	-	reporter gene / fluorescence	-	EC50	H37Rv	>20 µM
CCN1C(=O)Cc2cc(C(=O)CN3CCN(c4ccc([N+](=O)[O-])cc4)CC3)ccc21	-	-	visual reading / absorbance	-	MIC	H37Rv	3.12 µg/mL
CCOC(=O)/C=C/c1ccc(OC)cc1	-	-	resazurin	-	MIC	H37Ra	485 µM
NC1[C@H]2CN(c3nc4c(cc3F)c(=O)c(C(=O)O)cn4-c3ccc(F)cc3F)C[C@@H]12	-	-	-	-	MIC50	82 strains	>4 µg/mL
CN(C)c1ccc(C(C2=C(O)c3ccccc3C(=O)C2=O)C2=C(O)c3ccccc3C(=O)C2=O)cc1	-	-	BACTEC	-	MIC bound	H37Rv	>12.8 µg/mL
O=C1NC(=Nc2ccccc2Cl)N/C1=C\c1ccc(Cl)cc1Cl	12.5 µg/mL	-	-	-	inhibition	H37Rv	13%
CC(=O)NCC1CN(c2ccc(C(C)=O)cc2)C(=O)O1	-	-	-	-	MIC	10 isolates	1.5–2.5 µg/mL
Cc1ccc(Nc2nc(NNc3nc(-c4ccccc4)c(C#N)c(=O)n3C)nc(Nc3ccc(C)cc3C)n2)c(C)c1	-	-	-	VERO	MIC	H37Rv	6.25 µg/mL
COc1ccc(Nc2nnc(-c3ccc(N)cc3)s2)cc1	6.25 µg/mL	-	BACTEC	-	inhibition	H37Rv	3%
CO[C@H]1[C@@H](O)c2coc3c2[C@](C)(c2ccc4c(c2C3=O)CCC4=O)[C@H]1O	-	-	BACTEC	-	MIC bound	H37Rv	>12.5 µg/mL
Cc1c(N2COCC2(C)C)c([N+](=O)[O-])cc2c(=O)c(C(=O)O)cn(C(C)(C)C)c12	-	-	-	-	MIC	H37Rv	15.49 µM
NNC(=O)c1ccncc1	-	-	-	-	MIC	H37RV (INH-R)	30 µg/mL
COC(=O)C1(N2CCOCC2)CCC(C(c2ccccc2)C(C)[N+](=O)[O-])C1	-	-	BACTEC	-	MIC bound	H37Rv	>12.5 µg/mL
Cc1c(N2CC(C)OC(C)C2)c([N+](=O)[O-])cc2c(=O)c(C(=O)O)cn(C(C)(C)C)c12	-	-	-	-	MIC	H37Rv	>29.94 µM
CCOC(=O)c1cc(C(=O)c2ccc(OC)cc2)n2c1ccc1c3ncccc3ccc12	-	-	reporter gene / fluorescence	-	EC90	H37Rv	>200 µM
Cn1c(NNc2nc(Nc3ccc(F)c(Cl)c3)nc(Nc3ccc(F)c(Cl)c3)n2)nc(-c2ccccc2)c(C#N)c1=O	-	-	-	-	EC50	H37Rv	<12.5 µg/mL
Nc1ccc(NCCNCCO)c2c(=O)c3ccccc3sc12	-	-	BACTEC	-	MIC bound	H37Rv	>12.5 µg/mL
CC1C(=O)Nc2ccc(C(=O)CN3CCN(c4ccccn4)CC3)cc21	-	-	visual reading / absorbance	-	MIC	H37Rv	25 µg/mL
O=C(NNC(=S)S)c1ccccc1	12.5 µg/mL	-	BACTEC	-	inhibition	H37Rv	-3%
CN1N=C(c2ccncc2)OC1c1cccc(F)c1	-	-	-	-	MIC	16PI	>20 µg/mL
COc1ccc2c(c1OC)[C@H]1N(C)CCc3cc4c(cc3[C@@]1(OC)C2=O)OCO4	-	-	BACTEC	-	MIC	H37Rv	≥12.5 µg/mL
CO[C@H]1/C=C/O[C@@]2(C)Oc3c(C)c(O)c4c(=O)c(c5oc6cc(N7CCN(CC(C)C)CC7)cc(=O)c6nc5c4c3=C2O)NC(=O)/C(C)=C\C=C\[C@H](C)[C@H](O)[C@@H](C)[C@@H](O)[C@@H](C)[C@H](OC(C)=O)[C@@H]1C	-	-	-	-	MIC	H37RV-PLN-SIG	≤0.015 µg/mL
CC1=C(/C=C/C(C)=N/NC(=O)c2ccncc2)C(C)(C)CCC1	-	-	resazurin	-	MIC bound	H37Rv	<6.25 µg/mL
NNC(=O)c1ccncc1	-	-	-	-	MIC	PR441	5 µg/mL
O=C1CSC2(CCCCC2)N1Cc1ccccc1	-	-	resazurin	-	EC50	H37Ra	>25 µg/mL
O=C1NC(=NCc2ccc(F)cc2)N/C1=C\c1ccccc1Cl	12.5 µg/mL	-	-	-	inhibition	H37Rv	10%
CO[C@H]1/C=C/O[C@@]2(C)Oc3c(C)c(O)c4c(O)c(c(/C=N/N5CCN(C6CCCC6)CC5)c(O)c4c3C2=O)NC(=O)/C(C)=C\C=C\[C@H](C)[C@H](O)[C@@H](C)[C@@H](O)[C@@H](C)[C@H](O)[C@@H]1C	-	-	-	-	MBC	Atencio	0.25 µg/mL
CCCCCCCCCCCCN1C(=O)C(CC(=O)O)SC12CCN(C(=O)C(N)CCCCN)CC2	25 µg/mL	-	resazurin	-	inhibition	H37Ra	96%
COc1ccc(-c2cc(-c3ccco3)c(C#N)c(=S)n2C2OC(CO)C(O)C(O)C2O)cc1	12.5 µg/mL	-	BACTEC	-	inhibition	H37Rv	7%
Cn1c(NNc2nc(Nc3ccc(Cl)cc3Cl)nc(Nc3ccc(Cl)cc3Cl)n2)nc(-c2ccccc2)c(C#N)c1=O	-	-	-	-	EC50	H37Rv	>12.5 µg/mL
CCCCCCCCN1C(=O)C(CC(=O)O)SC12CCCCC2	25 µg/mL	-	resazurin	-	inhibition	H37Ra	8%
CC1C(=O)N(C)c2ccc(C(=O)CN3CCN(c4noc5c(Cl)cccc45)CC3)cc21	-	-	visual reading / absorbance	-	MIC	H37Rv	6.25 µg/mL
CCOC(=O)c1cc(C(=O)c2ccc(C)cc2)n2c1ccc1c3ncccc3ccc12	-	-	reporter gene / fluorescence	-	MIC	H37Rv	>200 µM
CC1(C)OCC2OC3(CO)NP(=O)(N(CCCl)CCCl)OC3C2O1	12.5 µg/mL	-	BACTEC	-	inhibition	H37Rv	-6%
Nc1ccc(-c2nnc(NCc3ccccc3)s2)cc1	6.25 µg/mL	-	BACTEC	-	inhibition	H37Rv	37%

The last 5 rows once more:

SMILES,tested at,mutations,method,cell line,endpoint,strain,value
CCCCCCCCN1C(=O)C(CC(=O)O)SC12CCCCC2,25 µg/mL,-,resazurin,-,inhibition,H37Ra,8%
CC1C(=O)N(C)c2ccc(C(=O)CN3CCN(c4noc5c(Cl)cccc45)CC3)cc21,-,-,visual reading / absorbance,-,MIC,H37Rv,6.25 µg/mL
CCOC(=O)c1cc(C(=O)c2ccc(C)cc2)n2c1ccc1c3ncccc3ccc12,-,-,reporter gene / fluorescence,-,MIC,H37Rv,>200 µM
CC1(C)OCC2OC3(CO)NP(=O)(N(CCCl)CCCl)OC3C2O1,12.5 µg/mL,-,BACTEC,-,inhibition,H37Rv,-6%
Nc1ccc(-c2nnc(NCc3ccccc3)s2)cc1,6.25 µg/mL,-,BACTEC,-,inhibition,H37Rv,37%

a–b is a range or a potency band. Percent inhibition refers to the dose given; in toxicity tests it is the harm to the cells. Fold resistance has wild type as its base. ECn is the concentration giving n% inhibition of infection, replication or growth. Rows are shuffled and stem from different studies. MIC bound: limit read from a one-dose screen. A number after MIC or MFC names an inhibition level or a share of isolates.